How the values were obtained:
[1] = tested on: PC12 cell line transfected with α-synuclein over-expression plasmid; conditions: 50 nM, 4 hours
[2] = tested on: SH-SY5Y cells; assay: Lyso-tracker labelling, CBE-induced lysosome aggregation; type: cell-based; conditions: 50 nM or 75 nM PAO for 5 or 10 minutes after 100 μM CBE for 72 hours
[3] = tested on: SH-SY5Y cells; assay: GlcCer content of cells by LC-MS; type: cell-based; conditions: 100 μM CBE and 50 nM PAO co-treated, vs 100 μM CBE
[4] = tested on: SH-SY5Y cells; assay: Autophagy markers LC3B and p62, Western blot and immunofluorescence; type: cell-based; conditions: CBE 48 hours, then PAO at different concentrations 24 hours, Western blot
[5] = tested on: SH-SY5Y cells; assay: Filipin staining of cholesterol storage caused by U18666A; type: cell-based; conditions: 10 μM U18666A and 35 nM, 70 nM PAO, 24 hours, vs 10 μM U18666A alone
[6] = tested on: primary microglia; conditions: 100 nM PAO, WT cells, at 8, 15, 30 and 60 minutes vs control group, p<0.05
[7] = tested on: SH-SY5Y cell line transfected with α-synuclein over-expression plasmid; conditions: PAO 6.25, 12.5, 25, 50, 75, 100 nM for 12 hours, vs α-syn-OE group
[8] = tested on: SH-SY5Y cell line transfected with α-synuclein over-expression plasmid; conditions: 4 hours
[9] = tested on: PC12 cell line transfected with HTT (1-586aa) over-expression plasmid; conditions: 25 nM, 50 nM, 75 nM and 100 nM, 4 hours, vs HTT OE group
[10] = molecular target: PI4KIIIα (Homo sapiens, UniProt P42356); conditions: previous studies; cited from earlier work
[11] = tested on: SH-SY5Y cells; assay: MTT cell viability, CBE-induced cell damage; conditions: 6.25 nM, 12.5 nM, 25 nM, 50 nM, 75 M and 100 nM PAO for 24 hours with 100 μM CBE, vs 100 μM CBE-treated group
[12] = tested on: SH-SY5Y cells; assay: MTT cell viability, CBE model with Baf-A1 blockade; conditions: 100 μM CBE and 25 nM, 50 nM and 75 nM PAO co-treated, vs 100 μM CBE
[13] = tested on: primary hippocampal neurons; assay: Lysosomal fluorescence of primary hippocampal neurons; conditions: 100 nM PAO, WT primary neuronal cells, vs control group
[14] = tested on: primary microglia lysosomes; assay: Microglial lysosomal exocytosis, LysoTracker live-cell imaging; conditions: 100 nM PAO, WT microglia
[15] = tested on: α-synuclein over-expressing cells; assay: Intracellular α-synuclein protein level, ELISA and Western blot; conditions: 75 nM and 100 nM
[16] = tested on: primary microglia lysosomes; assay: Recovery of microglial lysosomal fluorescence after BPB exit from lysosomes; conditions: PAO after 60 min BPB pre-incubation, WT microglia
[17] = tested on: primary microglia lysosomes; assay: BPB entry into microglial lysosomes (kiss-and-run), quenching of lysosomal fluorescence; conditions: PAO + 1 mM BPB, WT microglia

By UniProt entry, the sequences of proteins in these tests, tags left out.
UniProt P42356, whole entry, looked up: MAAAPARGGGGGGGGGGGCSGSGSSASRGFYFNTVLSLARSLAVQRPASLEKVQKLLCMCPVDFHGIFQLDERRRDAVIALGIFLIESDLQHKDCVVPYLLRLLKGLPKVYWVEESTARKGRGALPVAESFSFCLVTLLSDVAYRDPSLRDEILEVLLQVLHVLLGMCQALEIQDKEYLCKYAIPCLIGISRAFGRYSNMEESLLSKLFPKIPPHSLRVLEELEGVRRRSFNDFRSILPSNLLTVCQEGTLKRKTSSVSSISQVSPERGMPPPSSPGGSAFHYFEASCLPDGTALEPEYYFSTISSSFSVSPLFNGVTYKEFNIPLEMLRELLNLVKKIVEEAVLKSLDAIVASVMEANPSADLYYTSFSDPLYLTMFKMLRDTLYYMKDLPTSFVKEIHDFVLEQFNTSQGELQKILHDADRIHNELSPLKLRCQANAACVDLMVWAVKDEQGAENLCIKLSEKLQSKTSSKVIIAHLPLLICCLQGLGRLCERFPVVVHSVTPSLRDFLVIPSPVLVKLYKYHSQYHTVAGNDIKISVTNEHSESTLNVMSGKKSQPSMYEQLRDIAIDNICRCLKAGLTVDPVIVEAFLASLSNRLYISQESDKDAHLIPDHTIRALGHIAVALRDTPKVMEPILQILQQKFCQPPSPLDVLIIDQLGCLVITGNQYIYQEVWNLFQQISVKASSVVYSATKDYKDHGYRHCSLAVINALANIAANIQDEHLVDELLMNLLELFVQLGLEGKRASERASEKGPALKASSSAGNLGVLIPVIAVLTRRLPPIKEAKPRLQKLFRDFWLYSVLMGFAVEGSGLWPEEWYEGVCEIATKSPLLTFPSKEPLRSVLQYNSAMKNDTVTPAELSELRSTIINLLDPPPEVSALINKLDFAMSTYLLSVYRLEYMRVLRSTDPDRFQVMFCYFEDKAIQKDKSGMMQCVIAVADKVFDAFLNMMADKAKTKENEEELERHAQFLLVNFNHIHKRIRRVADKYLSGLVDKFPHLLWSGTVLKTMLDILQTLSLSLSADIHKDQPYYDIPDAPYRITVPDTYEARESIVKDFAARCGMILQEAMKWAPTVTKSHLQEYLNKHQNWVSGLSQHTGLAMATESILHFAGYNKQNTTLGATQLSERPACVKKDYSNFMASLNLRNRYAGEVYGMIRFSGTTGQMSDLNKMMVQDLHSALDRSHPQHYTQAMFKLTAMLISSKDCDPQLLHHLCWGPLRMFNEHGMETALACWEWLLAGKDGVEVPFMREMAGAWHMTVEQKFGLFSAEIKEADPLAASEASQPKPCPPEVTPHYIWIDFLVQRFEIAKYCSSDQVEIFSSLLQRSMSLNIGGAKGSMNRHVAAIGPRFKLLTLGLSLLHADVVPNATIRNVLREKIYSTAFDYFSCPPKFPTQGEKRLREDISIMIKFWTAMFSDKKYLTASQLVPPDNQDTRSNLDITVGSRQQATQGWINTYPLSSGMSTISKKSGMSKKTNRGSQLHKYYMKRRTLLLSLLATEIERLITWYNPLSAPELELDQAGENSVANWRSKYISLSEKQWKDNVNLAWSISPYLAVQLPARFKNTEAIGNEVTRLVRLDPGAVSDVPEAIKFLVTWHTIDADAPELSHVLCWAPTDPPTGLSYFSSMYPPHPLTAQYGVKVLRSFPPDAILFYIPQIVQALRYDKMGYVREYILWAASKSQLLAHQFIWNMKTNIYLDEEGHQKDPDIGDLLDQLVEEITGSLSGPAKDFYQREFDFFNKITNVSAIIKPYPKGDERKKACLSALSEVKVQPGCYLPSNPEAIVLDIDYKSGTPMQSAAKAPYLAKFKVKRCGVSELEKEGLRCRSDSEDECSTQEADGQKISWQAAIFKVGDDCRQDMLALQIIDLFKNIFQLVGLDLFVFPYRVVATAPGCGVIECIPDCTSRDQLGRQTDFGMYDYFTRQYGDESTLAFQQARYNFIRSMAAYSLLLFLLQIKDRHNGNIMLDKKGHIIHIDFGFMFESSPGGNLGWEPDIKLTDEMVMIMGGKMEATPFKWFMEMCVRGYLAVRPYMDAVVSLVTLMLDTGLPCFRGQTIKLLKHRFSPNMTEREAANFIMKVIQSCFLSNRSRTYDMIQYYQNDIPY

SMILES: Cc1ccc([As]=O)cc1 (stereo not drawn)
- efflux of intracellular α-synuclein protein ([1]; 75 nM): promoted the efflux of intracellular α-synuclein protein

SMILES: O=[As]c1ccccc1 (stereo not drawn)
- Lyso-tracker labeled positive cells [2]: reduced
- concentration of GlcCer in cells [3]: decreased
- LC3B protein expression [4]: dose-dependently promoted
- p62 protein level [4]: inhibited
- Filipin staining fluorescence intensity [5]: decreased
- extracellular ATP concentration [6]: significantly increased
- cell viability rate [7]: significantly higher
- extracellular α-synuclein protein level ([1]; 75 nM and 100 nM, vs α-synOE group without PAO): significantly increased
- extracellular α-synuclein protein level [8]: same capability of promoting extracellular α-synuclein protein levels
- HTT protein secretion [9]: significantly promoted HTT protein secretion
- concentration at which PAO acts mainly on PI4KIIIα [10]: < 5 µM
- cell viability rate [11]: significantly higher
- cell viability [12]: significantly increased
- lysosomal fluorescence intensity [13]: significantly decreased
- discoloration (decrease of lysosomal fluorescence intensity) ([14]; at 100 seconds vs 0 seconds): 5.2%
- discoloration (decrease of lysosomal fluorescence intensity) ([14]; at 200 seconds vs 0 seconds): 47.4%
- discoloration (decrease of lysosomal fluorescence intensity) ([14]; at 400 seconds vs 0 seconds): 68.5%
- discoloration (decrease of lysosomal fluorescence intensity) ([14]; at 500 seconds vs 0 seconds): 70.1%
- intracellular α-synuclein, Western blot ([15]; vs control group): lower than that in the control group
- intracellular α-synuclein protein level, ELISA ([15]; vs α-syn OE group): significantly reduced
- average decrease in lysosomal fluorescence intensity ([16]; first 200 seconds vs 0 seconds): 41.8%
- increase (recovery) of lysosomal fluorescence ([16]; next 300 seconds, compared to 0 seconds): 26.4%
- discoloration of lysosomal fluorescence in BPB solution ([17]; at 10 seconds vs 0 seconds): 22.3%
- discoloration of lysosomal fluorescence in BPB solution ([17]; at 100 seconds vs 0 seconds): 62.8%
- discoloration of lysosomal fluorescence in BPB solution ([17]; at 400 seconds vs 0 seconds): 75.5%
- discoloration of lysosomal fluorescence in BPB solution ([17]; at 500 seconds vs 0 seconds): 78%
